{"source": "PubChem BioAssay AID1224833 (University of Georgia, 2016)", "aim": "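Human genes whose knock-down alters rotavirus replication in monkey cells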 (primary screen)", "cells": "monkey MA104 kidney cells", "reagent": "siRNA pool against human genes, 50 nM", "time to read-out": "48 h knock-down before infection; read 24 h after infection", "challenge": "infection with rotavirus strain RV3 two days after transfection; infectious dose for this stage not given", "detection": "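Rotavirus antigen per well by fluorescent immunoassay, normalised to non-targeting control wells on each plate and given as a standard z-score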", "scale": "z-score vs non-targeting control: higher = more rotavirus replication than with non-targeting control", "rule for the call": "In these data the active calls have z-score vs non-targeting control at about -1 or lower, or at about 1 or higher", "calls": "active = z-score beyond 1 either way; inactive = z-score within 1 of zero", "note": "Here is an unselected part of about 12,000 reagents. About 5,600 of them (46%) count as active. 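Active calls cover z-scores past 1 in both directions, so they include lowered as well as raised rotavirus replication.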 A number with no mark means an inactive call. Reagent sequences are not shown."}
{"gene": "CWF19L2", "z-score vs non-targeting control": 0.0062}
{"gene": "FLNC", "z-score vs non-targeting control": 0.987}
{"gene": "DISP1", "z-score vs non-targeting control": 0.597}
{"gene": "BANF1", "z-score vs non-targeting control": -0.315}
{"gene": "GALNT16", "z-score vs non-targeting control": "-1.44 (active)"}
{"gene": "OR7G3", "z-score vs non-targeting control": -0.807}
{"gene": "ZCCHC24", "z-score vs non-targeting control": 0.624}
{"gene": "DGCR8", "z-score vs non-targeting control": -0.102}
{"gene": "CLEC4C", "z-score vs non-targeting control": -0.187}
{"gene": "BLOC1S5", "z-score vs non-targeting control": -0.508}
{"gene": "OR7C1", "z-score vs non-targeting control": -0.299}
{"gene": "LY86", "z-score vs non-targeting control": -0.567}
{"gene": "LRPPRC", "z-score vs non-targeting control": "-1.26 (active)"}
{"gene": "TAF11", "z-score vs non-targeting control": "1.75 (active)"}
{"gene": "SPMIP3", "z-score vs non-targeting control": "1.18 (active)"}
{"gene": "GPR62", "z-score vs non-targeting control": -0.594}
{"gene": "FMO5", "z-score vs non-targeting control": "-1.29 (active)"}
{"gene": "ATCAY", "z-score vs non-targeting control": 0.0809}
{"gene": "PCDHA3", "z-score vs non-targeting control": "-2.43 (active)"}
{"gene": "RESF1", "z-score vs non-targeting control": 0.574}
{"gene": "SSX5", "z-score vs non-targeting control": "1.82 (active)"}
{"gene": "TAS2R20", "z-score vs non-targeting control": -0.52}
{"gene": "PGM1", "z-score vs non-targeting control": "-2.47 (active)"}
{"gene": "IL11", "z-score vs non-targeting control": "-1.94 (active)"}
{"gene": "ZIC4", "z-score vs non-targeting control": 0.191}
{"gene": "SLC8B1", "z-score vs non-targeting control": "-1.13 (active)"}
{"gene": "SNX21", "z-score vs non-targeting control": -0.392}
{"gene": "AAMP", "z-score vs non-targeting control": 0.505}
{"gene": "MECOM", "z-score vs non-targeting control": -0.804}
{"gene": "NCOA5", "z-score vs non-targeting control": 0.35}
{"gene": "KLHL38", "z-score vs non-targeting control": "-1.01 (active)"}
{"gene": "MAGEA8", "z-score vs non-targeting control": -0.737}
{"gene": "GAL3ST4", "z-score vs non-targeting control": 0.752}
{"gene": "ARIH1", "z-score vs non-targeting control": "2.95 (active)"}
{"gene": "STATH", "z-score vs non-targeting control": 0.75}
{"gene": "TRIM9", "z-score vs non-targeting control": -0.111}
{"gene": "CACTIN", "z-score vs non-targeting control": "-2.19 (active)"}
{"gene": "NTM", "z-score vs non-targeting control": 0.141}
{"gene": "NKD1", "z-score vs non-targeting control": 0.689}
{"gene": "TCTA", "z-score vs non-targeting control": "2.59 (active)"}
{"gene": "RAB41", "z-score vs non-targeting control": "-2.51 (active)"}
{"gene": "DLX6", "z-score vs non-targeting control": -0.719}
{"gene": "POM121L2", "z-score vs non-targeting control": -0.69}
{"gene": "ARHGEF19", "z-score vs non-targeting control": -0.842}
{"gene": "AIFM1", "z-score vs non-targeting control": "1.15 (active)"}
{"gene": "GRB10", "z-score vs non-targeting control": "-1.49 (active)"}
{"gene": "TPP1", "z-score vs non-targeting control": -0.788}
{"gene": "IBA57", "z-score vs non-targeting control": "-1.44 (active)"}
{"gene": "PRSS42P", "z-score vs non-targeting control": "1.16 (active)"}
{"gene": "KLHL13", "z-score vs non-targeting control": "-2.09 (active)"}
{"gene": "EGR3", "z-score vs non-targeting control": "1.05 (active)"}
{"gene": "CYTL1", "z-score vs non-targeting control": "-1.18 (active)"}
{"gene": "RMND5A", "z-score vs non-targeting control": "-2.18 (active)"}
{"gene": "SNU13", "z-score vs non-targeting control": -0.696}
{"gene": "RAB9A", "z-score vs non-targeting control": -0.921}
{"gene": "GHDC", "z-score vs non-targeting control": 0.636}
{"gene": "APOL6", "z-score vs non-targeting control": 0.304}
{"gene": "TBL1X", "z-score vs non-targeting control": 0.0363}
{"gene": "GPR6", "z-score vs non-targeting control": -0.693}
{"gene": "CALML3", "z-score vs non-targeting control": "-1.03 (active)"}
